The test in a line: Confirmation assay for measurement of the activity of small molecule inhibitors on Zika virus induced Caspase-3 activity in human iPSC derived neural progenitor cells (hNPCs). As to conditions: hNPC ZIKV-induced caspase-3/7, Caspase-Glo luminescence, 6 h; series mostly up to 46.1 µM. The source says: National Center for Advancing Translational Sciences [NCATS] Johns Hopkins University School of Medicine Florida State University Assay Overview: Increase in the Caspase-3 activity indicates an activation of apoptosis cell death pathway caused by Zika virus infection in certain types of neuronal cells including human neural progenitor cells (hNPCs), astrocytes, and astrocytoma cell line (SNB-19). This cell-based caspase-3 activity assay measures the increased caspase-3 activity in the human iPSC derived neural progenitor cells (hNPCs) after a 6-hour Zika virus infection with a luminescence readout. A decrease in the luminescence signal in this assay by small molecule treatment indicates an inhibitory effect of that small molecule on the Zika virus induced caspase-3 activity that may correlate with its effect on reduction of Zika virus caused cell death.
Assay Protocol Summary: The medium for hNPCs consists of DMEM/F12, N2 supplement (ThermoFisher, Cat.# 17502048), NEAA (ThermoFisher, Cat. # 11140050), 2 ug/ml heparin, 2 uM cyclopamine, and B27 (ThermoFisher, Cat. # 17504044). […] The luminescence intensity of the assay plates was measured using a ViewLux plate reader (PerkinElmer). […] The percentage inhibitions of the increased Caspase-3 activity by small molecule inhibitors were then calculated.

Molecules are shown by their SMILES. Only a part is listed here, and it is no random draw. Records with an inconclusive call do not appear. Where a call stands in place of a potency, no number is given. Calls of active or inactive are those of the source. The call rests on the fitted dose curve; in most records, active means well fitted inhibition curve with a large enough effect; inconclusive means small, poorly fitted or top-dose-only effect; inactive means no such curve, though single readings can be large or run the other way.

The values below come from PubChem BioAssay AID1224855 (National Center for Advancing Translational Sciences (NCATS), 2016).

As to `CCOP(=O)(CC)Oc1ccc([N+](=O)[O-])cc1` (configuration not stated), the Potency result was “inactive”.
The same measure for `C/C1=C2N=C(/C=C3N=C(/C(C)=C4\[N-][C@@](C)([C@@H]5N=C1[C@](C)(CCC(=O)NC[C@@H](C)OP(=O)([O-])O[C@H]1[C@@H](O)[C@@H](n6cnc7cc(C)c(C)cc76)O[C@@H]1CO)[C@H]5CC(N)=O)[C@@](C)(CC(N)=O)[C@@H]4CCC(N)=O)[C@@](C)(CC(N)=O)[C@@H]\3CCC(N)=O)C(C)(C)[C@@H]/2CCC(N)=O.[C-]#N.[Co+3]`: active: 6.9 µM.
